Pooled drug test results. Numbers come from NIAID ChemDB, via PubChem.

Common to all: growth or infection tests; species: Mycobacterium tuberculosis

Inhibition is in % at the dose shown (toxicity tests: loss of growth or viability). ECn: concentration that inhibits the pathogen or its effect by n%. MIC50, MIC90 and the like: level of inhibition, or share of isolates inhibited. Blank or dashed fields: not listed here. MIC bound: limit read from a one-dose screen. Neighbouring rows are from separate reports.

smiles	changes	strain or isolate	dose	cells	measure	method	value
CCOc1ccc(C(=O)/C=C/c2cc3cc(F)ccc3nc2Cl)cc1		H37Rv	6.25 µM		inhibition	broth dilution	13%
Cc1c(C(=O)O)cc2n(c1=O)Cc1cc3ccccc3nc1-2		H37Rv			MIC bound	resazurin	>6.25 µg/mL
N/C(COc1ccc([N+](=O)[O-])cc1)=N/NC(=O)c1ccncc1		H37Rv(ATCC25584)			MIC		6.25 µg/mL
Cc1ccc(C2=Nc3cc(C)c(Cl)cc3S(=O)(=O)NN2)cc1		H37Rv	12.5 µg/mL		inhibition	BACTEC	0%
CCCCCCCCCN1C(=O)c2cc(Cl)nnc2Oc2cc(C)ccc21		H37Rv	12.5 µg/mL		inhibition	BACTEC	0%
CC(C)OC(=O)c1cc[n+](CC(=O)c2ccc(F)cc2)cc1.[Br-]	XDR				MIC	resazurin	16 µg/mL
CC(=O)/C(N=Nc1ccc(C(=O)N/N=C/c2ccccc2)cc1)=C(\C)O		H37Rv	12.5 µg/mL		inhibition		35%
Cc1cccc(OC/C(N=Cc2ccncc2)=N\NC(=O)c2ccncc2)c1		INH-r			MIC		>100 µg/mL
COc1ncnc2c1cnn2COC[C@@H](O)CO		H37Rv			EC50	BACTEC	>12.5 µg/mL
O=C(O)c1cn(C2CC2)c2cc(N3CCN(/N=C/c4ccc(C(F)(F)F)cc4)CC3)c(F)cc2c1=O		H37Rv			MIC90	fluorescence	28.28 µM
CC(=O)N[C@H]1CN(c2ccc(N3C=NN(C)CC3)c(F)c2)C(=O)O1		H37Rv			MIC	GFP / reporter gene	250 µg/mL
CCCCCCCCCN1C(=O)c2ccnnc2Oc2cc(C)ccc21		H37Rv			EC50	BACTEC	>12.5 µg/mL
Cc1ccccc1NC(=O)C1C2C=CC(O2)C1C(=O)O		H37Rv	12.5 µg/mL		inhibition	BACTEC	-1%
COc1ccc2nc(-c3ccccc3)cc(N/N=C/c3ccc([N+](=O)[O-])o3)c2c1		H37Rv	12.5 µg/mL	VERO	inhibition		72%
CCCCCN1C(=O)c2cc(Cl)nnc2Oc2ccc3ccccc3c21		H37Rv	12.5 µg/mL		inhibition	BACTEC	54%
COc1ccc2c(N/N=C/c3c(OC)ccc4ccccc34)cc(C)nc2c1		H37Rv	12.5 µg/mL	VERO	inhibition		100%
Nc1nc(-c2ccc(Br)cc2)cc(-c2cc3cc(F)ccc3nc2Cl)n1		H37Rv	6.25 µg/mL		inhibition	broth dilution	3%
NC[C@H]1O[C@H](O[C@H]2[C@H](O)[C@@H](O[C@H]3O[C@H](CO)[C@@H](O)[C@H](N)[C@H]3O)[C@H](N)C[C@@H]2N)[C@H](O)[C@@H](O)[C@@H]1O		TN3187 (W1)			MIC		>256 µg/mL
CCn1c(SCC(=O)NN)nnc1-c1ccco1		H37Rv			EC50		>6.25 µg/mL
CC(=O)/C(N=Nc1ccc(C(=O)N/N=C/c2ccccc2F)cc1)=C(\C)O		H37Rv			EC50		>12.5 µg/mL
N/C(COc1cccc(Cl)c1)=N/NC(=O)c1ccncc1		H37Rv(ATCC25584)			MIC		12.5 µg/mL
COc1ccc(/C=N/Nc2ccnc3ccccc23)c2ccccc12		H37Rv	12.5 µg/mL	VERO	inhibition		100%
O=C(O)c1cn(C2CC2)c2cc(N3CCNCC3)c(F)cc2c1=O		H37Rv			MIC90	fluorescence	0.34 µM
O=C(NNc1ccccc1)C(O)C(O)C(O)C(O)C(O)C(O)C(O)CO		H37Rv			MIC bound	BACTEC	>12.5 µg/mL
N/C(=N\N=C\c1ccccc1Cl)c1ccncc1		1342			MIC		16 µg/mL
CC(=N\NC(=O)c1ccc([N+](=O)[O-])o1)/C(Cl)=N/Nc1ccc(S(=O)(=O)Nc2nccs2)cc1		RCMB 010126			MIC		7.81 µg/mL
COC12OCCN(C)C1=CC(=O)C1(C)N=NCC12		H37Rv	12.5 µg/mL		inhibition	BACTEC	0%
O=C(N/N=C(/CS(=O)(=O)c1ccccc1)c1ccc(F)cc1)c1ccc([N+](=O)[O-])o1		RCMB 010126			MIC		7.81 µg/mL
FC(F)(F)c1cc(-c2ccc(C3Nc4ccccc4-n4cccc43)o2)cc(C(F)(F)F)c1		H37Rv	12.5 µg/mL		inhibition	BACTEC	-51%
CCCCCCCCN1C(=O)c2cc(Cl)nnc2Oc2ccc(C)cc21		H37Rv	12.5 µg/mL		inhibition	BACTEC	19%
N/C(=N\N=C\c1cccc(F)c1)c1ccncc1		1342			MIC		64 µg/mL
CNC(=S)N/N=C(\C)CCc1c(C)nn(C(=S)NC)c1C		H37Rv			MIC bound		>6.25 µg/mL
COC(=O)N[C@H]1CN(c2ccc(N3C=NN(C)CC3)c(F)c2)C(=O)O1		20 clinical isolates			MIC90	resazurin	1000 µg/mL
OC1C(O)C(O)C(O)C(O)C1O		H37Rv			MIC	BACTEC	≥12.5 µg/mL
COc1ccc(N/N=C(Cl)/C(C)=N/NC(=O)c2ccc([N+](=O)[O-])o2)cc1		RCMB 010126			MIC		62.5 µg/mL
Cc1ccc(N)cc1F		H37Rv			MIC bound	BACTEC	>12.5 µg/mL
CCOC(=O)CSc1nnc(-c2ccco2)n1CC		H37Rv			MIC		>6.25 µg/mL
CC(=O)NC[C@H]1CN(c2ccc(N3C=NOCC3)c(F)c2)C(=O)O1		H37Rv			MIC	GFP / reporter gene	125 µg/mL
O=Cc1cc2c(Cl)nccc2o1		H37Rv			MIC bound	BACTEC	>12.5 µg/mL
COc1ccc(/C=N/Nc2ccnc3cc(Cl)ccc23)c2ccccc12		H37Rv	12.5 µg/mL	VERO	inhibition		99%
CC(=O)/C(N=Nc1ccc(C(=O)N/N=C/C=C/c2ccc(N(C)C)cc2)cc1)=C(\C)O		H37Rv			MIC		>12.5 µg/mL
Nc1ncnc2c1cnn2Cc1cn(COC[C@@H](O)CO)nn1		H37Rv			EC50	BACTEC	>12.5 µg/mL
COc1cccc(Nc2nc(NS(=O)(=O)c3cc(C)c(Cl)cc3S)n[nH]2)c1		H37Rv	12.5 µg/mL		inhibition	BACTEC	0%
N#Cc1c(-c2cccs2)cc(-c2cc3cc(F)ccc3nc2Cl)nc1N		H37Rv	6.25 µg/mL		inhibition	broth dilution	21%
CCCCCCN1C(=O)c2cc(Cl)nnc2Oc2ccccc21		H37Rv			EC50	BACTEC	>12.5 µg/mL
N/C(=N\N=C\c1ccc([N+](=O)[O-])cc1)c1ccncc1		H37Rv			MIC		256 µg/mL
CCOc1ccc(C(=O)/C=C/c2cc3cc(Br)ccc3nc2Cl)cc1		H37Rv	6.25 µg/mL		inhibition	broth dilution	19%
NNC(=O)c1ccncc1		RCMB 010126			MIC		0.4 µg/mL
Cc1ccc(C)c(/C=N/N=C(\N)c2ccncc2)c1		1481			MIC		256 µg/mL
NC(=S)NNC(=O)c1ccc([N+](=O)[O-])cc1		H37Rv			MIC bound	BACTEC	≤12.5 µg/mL
O=C(O)c1cn(C2CC2)c2cc(N3CCN(/N=C/c4ccc([N+](=O)[O-])cc4)CC3)c(F)cc2c1=O		H37Rv			MIC90	fluorescence	8.85 µM
O=C(N/N=C/c1ccc(Cl)cc1Cl)c1ccccc1SSc1ccccc1C(=O)N/N=C/c1ccc(Cl)cc1Cl		H37Rv	12.5 µg/mL		inhibition	BACTEC	72%
CC(=O)Oc1ccccc1C(=O)Nc1ncc([N+](=O)[O-])s1		X spoligotype 70			MIC	visual reading	16 µg/mL
CCCCOc1ccc2nccc(NN)c2c1		H37Rv		VERO	MIC		12.5 µg/mL
CC(=O)NC[C@H]1CN(c2ccc(N3C=NN(C(N)=O)CC3)c(F)c2)C(=O)O1		20 clinical isolates			MIC90	resazurin	250 µg/mL
O=c1/c(=C\c2cccc([N+](=O)[O-])c2)sc2nc3ccccc3n12		H37Rv			MIC bound	resazurin	>6.25 µg/mL
O=C(N/N=C(\COc1cccc(Cl)c1)N=Cc1ccncc1)c1ccncc1		H37Rv(ATCC25584)			MIC		50 µg/mL
CC(=O)/C(N=Nc1ccc(C(=O)N/N=C/c2ccc([N+](=O)[O-])o2)cc1)=C(\C)O		H37Rv	12.5 µg/mL		inhibition		95%
CSc1ncnc2c1cnn2COC[C@@H](O)CO		H37Rv			EC50	BACTEC	>12.5 µg/mL
COc1cc(/C=N/NC(=O)c2ccc(N)cc2)ccc1O		H37Rv			MIC		>12.5 µg/mL
Nc1ccccc1C(=O)/C=C/c1cc2cc(Br)ccc2nc1Cl		H37Rv	6.25 µg/mL		inhibition	broth dilution	6%
O=C1CSC(N2CCN(c3ccc(N4C[C@H](CO)OC4=O)cc3F)C=N2)=N1		20 clinical isolates			MIC90	resazurin	1000 µg/mL
N/C(=N\N=C\c1ccc(Br)cc1)c1ccncc1		1054			MIC		64 µg/mL
O=C(/C=C/c1cc2cc(Br)ccc2nc1Cl)c1cccc([N+](=O)[O-])c1		H37Rv	6.25 µg/mL		inhibition	broth dilution	11%
COc1cc(/C=N/NC(=O)c2ccc(N=N/C(C(C)=O)=C(/C)O)cc2)ccc1O		H37Rv			MIC		>12.5 µg/mL
N/C(=N\N=C\c1ccccc1)c1ccncc1		1342			MIC		32 µg/mL
CC(=O)/C(N=Nc1ccc(C(=O)N/N=C/c2ccc([N+](=O)[O-])cc2)cc1)=C(\C)O		H37Rv			EC50		>12.5 µg/mL
CCn1c(SCC(=O)N/N=C/c2cccc(OC)c2)nnc1-c1ccco1		H37Rv	6.25 µg/mL		inhibition		23%
Nc1ccc(C(=O)N/N=C/c2ccc([N+](=O)[O-])o2)cc1		H37Rv			EC50		<12.5 µg/mL
Cc1cc(NN)c2cc(F)ccc2n1		H37Rv	12.5 µg/mL	VERO	inhibition		69%
COc1ccc2c(c1)C(=O)C(Nc1ccc(C=O)cc1)(OC)C(OC)(c1ccc([N+](=O)[O-])cc1)O2		H37Rv			MIC bound	BACTEC	>12.5 µg/mL
CCn1c(SCC(=O)N/N=C/c2cccc([N+](=O)[O-])c2)nnc1-c1ccco1		H37Rv	6.25 µg/mL		inhibition		3%
CCCCc1ccc2nccc(N/N=C/c3ccc(OC)c4ccccc34)c2c1		H37Rv	12.5 µg/mL	VERO	inhibition		100%
Cc1ccc(/C=N/N2CCN(c3cc4c(cc3F)c(=O)c(C(=O)O)cn4C3CC3)CC2)cc1		H37Rv			MIC90	fluorescence	0.91 µM
CCCCCCCN1C(=O)c2ccnnc2Oc2ccc3ccccc3c21		H37Rv	12.5 µg/mL		inhibition	BACTEC	0%
Nc1nc2c(c(-c3cc4cc(Br)ccc4nc3Cl)n1)-c1ccccc1C2		H37Rv	6.25 µg/mL		inhibition	broth dilution	14%
COc1cccc(/C=N/N=C(\N)c2ccncc2)c1OC		1342			MIC		256 µg/mL
CCN(CCO)CCNc1ccc(C)c2sc3cc(Cl)ccc3c(=O)c12		H37Rv		VERO	MIC	BACTEC	3.13 µg/mL
O=C(NN1CCN(c2cc3c(cc2F)c(=O)c(C(=O)O)cn3C2CC2)CC1)c1cccc([N+](=O)[O-])c1		H37Rv			MIC90	fluorescence	>50 µM
OC[C@H](O)COCn1ncc2c(NCc3ccccc3)ncnc21		H37Rv			EC50	BACTEC	>12.5 µg/mL
O=C1O[C@@H](CO)CN1c1ccc(N2C=NOCC2)c(F)c1		20 clinical isolates			MIC90	resazurin	500 µg/mL
O=C1c2c(O)cccc2-c2nn(CCNCCO)c3ccc(NCCNCCO)c1c23		H37Rv			MIC bound	BACTEC	≤12.5 µg/mL
CC(=N\NC(=O)c1ccc([N+](=O)[O-])o1)/C(Cl)=N/Nc1ccc(S(=O)(=O)Nc2ncccn2)cc1		RCMB 010126			MIC		15.63 µg/mL
CC1(C)c2ccccc2-c2nc3ccccc3c(N)c2C1O		H37Rv	12.5 µg/mL		inhibition	BACTEC	73%
CN(C)c1ccc(/C=C/C/C=N/NC(=O)c2ccc(N)cc2)cc1		H37Rv			MIC		>12.5 µg/mL
O=CNC12C(=O)NC(=O)C1(C(=O)O)C21CCCCC1		H37Rv			MIC bound	BACTEC	>12.5 µg/mL
CCCCCCCN1C(=O)c2cc(Cl)nnc2Oc2ccc3ccccc3c21		H37Rv			EC50	BACTEC	>12.5 µg/mL
Cc1onc(-c2c(F)cccc2Cl)c1C(=O)N[C@@H]1C(=O)N2[C@@H]1SC(C)(C)[C@@H]2C(=O)O		H37Rv			MIC bound	resazurin	>6.25 µg/mL
COc1cccc(OC/C(N)=N\NC(=O)c2ccncc2)c1		H37Rv(ATCC25584)			MIC		12.5 µg/mL